A mixed list of measured activities; the numbers were collected in NIAID ChemDB.

Shared fields: growth or infection tests; organism: HIV-1; method: RT activity; endpoint: EC50

a–b is a range or a potency band.

CCc1cc(COCc2ccccc2Br)c(=O)[nH]c1C ; strain or isolate: LAI ; cell line: CEM + CEM-SS ; value: 2.1 µM
Cc1cn([C@H]2C[C@H](N=[N+]=[N-])[C@@H](COP(=O)(OCCCCSC(=O)C(C)(C)C)OCCCCSC(=O)C(C)(C)C)O2)c(=O)[nH]c1=O ; strain or isolate: LAI ; cell line: CEM + CEM-SS ; value: 1 µM
c1ccc2c(c1)ncc1cc3c(cc12)OCO3 ; strain or isolate: IIIB ; cell line: MT-4 ; value: 5 µg/mL
COC(=O)[C@H](C)NP(=O)(OC[C@H]1O[C@@H](n2cc(C)c(=O)[nH]c2=O)C[C@@H]1N=[N+]=[N-])Oc1ccc(Br)cc1 ; strain or isolate: IIIB ; cell line: PBMC ; value: 0.001–0.004 µM
O=c1ccn([C@H]2C=C[C@@H](CO)O2)c(=O)[nH]1 ; strain or isolate: LAV ; cell line: PBMC ; value: 79.2 µM
Nc1ncnc2c1ncn2[C@H]1CC[C@@H](CO)O1 ; strain or isolate: LAI ; cell line: CEM + CEM-SS ; value: 1.5 µM
CC(=O)N[C@H](C(=O)N[C@@H](Cc1ccccc1)[C@@H](O)CN(Cc1ccccc1)NC(=O)[C@@H](NC(C)=O)C(C)C)C(C)C ; strain or isolate: LAV ; cell line: MT-2 ; value: <10 µM
O=C(O)C(=O)CC(=O)c1cc(OCc2ccccc2)cc(OCc2ccccc2)c1 ; strain or isolate: BaL ; cell line: PBMC ; value: 1.1 µM
O=c1[nH]cnc2c1ncn2[C@H]1C=C[C@@H](CO)O1 ; strain or isolate: LAV ; cell line: PBMC ; value: >100 µM
O=c1[nH]cnc2c1ncn2[C@H]1CC[C@@H](CO)O1 ; strain or isolate: LAI ; cell line: CEM + CEM-SS ; value: 4.3 µM
O=C(O)P(=O)(O)O ; strain or isolate: III ; cell line: H9 ; value: <132 µM
CCOCn1c([Se]c2ccccc2)cc(=O)[nH]c1=O ; strain or isolate: LAV ; cell line: PBMC ; value: 36 µM
COc1ccc(-c2c3nc(c(-c4ccc(OC)c(OC)c4)c4ccc([nH]4)c(-c4ccc(OC)c(OC)c4)c4nc(c(-c5ccc(OC)c(OC)c5)c5ccc2[nH]5)C=C4)C=C3)cc1OC ; strain or isolate: LAV ; cell line: PBMC ; value: >100 µM
O=c1ccn([C@H]2CC[C@@H](CO)O2)c(=O)[nH]1 ; strain or isolate: LAV ; cell line: PBMC ; value: 96.8 µM
CCOC(=O)[C@H](C)NP(=O)(OC[C@@H]1O[C@H](n2cc(C)c(=O)[nH]c2=O)C[C@H]1N=[N+]=[N-])OC[C@H]1O[C@@H](n2cc(C)c(=O)[nH]c2=O)C[C@@H]1N=[N+]=[N-] ; strain or isolate: LAI ; cell line: CEM + CEM-SS ; value: 0.027 µM
CC(=O)SCCOP(=O)(OCCSC(C)=O)OC[C@H]1O[C@@H](n2cc(C)c(=O)[nH]c2=O)C[C@@H]1N=[N+]=[N-] ; strain or isolate: LAI ; cell line: MT-4 ; value: 0.078 µM
Cc1cn([C@H]2C[C@H](N=[N+]=[N-])[C@@H](COP(=O)(O)OC[C@H]3OC(O)[C@@H](O)[C@@H](O)[C@@H]3O)O2)c(=O)[nH]c1=O ; strain or isolate: LAV-Bru ; setting: 15 d ; cell line: CEM ; value: <0.2 µM
CC(C)(C)C(=O)SCCOP(=O)(OCCSC(=O)C(C)(C)C)OC[C@@H]1CC[C@H](n2cnc3c(N)ncnc32)O1 ; strain or isolate: LAI ; cell line: CEM + CEM-SS ; value: 0.0013 µM
O=c1[nH]cnc2c1ncn2[C@@H]1O[C@@H](CO)C=C1F ; strain or isolate: LAV ; cell line: PBMC ; value: >100 µM
CCc1cc(COCc2ccccc2)c(S(C)(=O)=O)nc1C ; strain or isolate: LAI ; cell line: CEM + CEM-SS ; value: 57 µM
Cc1cn([C@H]2C[C@H](N=[N+]=[N-])[C@@H](CO)O2)c(=O)nc1N ; strain or isolate: LAV ; cell line: PBMC ; value: 0.081–0.22 µM
CC(C)(C)c1cc(-c2c3nc(c(-c4cc(C(C)(C)C)c(O)c(C(C)(C)C)c4)c4ccc([nH]4)c(-c4cc(C(C)(C)C)c(O)c(C(C)(C)C)c4)c4nc(c(-c5cc(C(C)(C)C)c(O)c(C(C)(C)C)c5)c5ccc2[nH]5)C=C4)C=C3)cc(C(C)(C)C)c1O ; strain or isolate: LAV ; cell line: PBMC ; value: 98.6 µM
CCc1cc(COCc2ccc(Br)cc2)c(OC)nc1C ; strain or isolate: LAI ; cell line: CEM + CEM-SS ; value: >10 µM
CCCCCCCCOCCCCC(=O)O ; cell line: H9 ; value: <100 µM
Nc1nc(=O)n([C@@H]2CO[C@H](CO)S2)cc1F ; strain or isolate: HXB2D (RT-M184V) ; mutations: RT-M184V ; cell line: MT-4 ; value: >100 µM
COC(=O)[C@H](C)NP(=O)(OC[C@H]1O[C@@H](N2C(=O)NC(=O)C(C)(Br)C2OC)C[C@@H]1N=[N+]=[N-])Oc1ccc(Br)cc1 ; strain or isolate: IIIB ; cell line: PBMC ; value: 0.009 µM
Cc1cn([C@H]2C[C@H](N=[N+]=[N-])[C@@H](COP(=O)(OCCSC(=O)C(C)(C)C)OCCSC(=O)C(C)(C)C)O2)c(=O)[nH]c1=O ; strain or isolate: LAI ; cell line: CEM + CEM TK- ; value: 0.011 µM
O=C(CNC(=O)C(=O)/C=C(\O)c1cccn1Cc1ccc(F)cc1)OC[C@@H]1C=C[C@H](n2ccc(=O)[nH]c2=O)O1 ; strain or isolate: LAI ; cell line: CEM + CEM-SS ; value: >10 µM
O=S(=O)(O)OC1C(OS(=O)(=O)O)C(OS(=O)(=O)O)C(OS(=O)(=O)O)C(OS(=O)(=O)O)C1OS(=O)(=O)O ; strain or isolate: NL4-3 ; cell line: CEM ; value: >250 µg/mL
Nc1ccn([C@H]2C=C[C@@H](CO)C2)c(=O)n1 ; strain or isolate: LAV ; cell line: PBMC ; value: >100 µM
CCc1cc(COCc2ccccc2)c(OC)nc1C ; strain or isolate: LAI ; cell line: CEM + CEM-SS ; value: >10 µM
Cc1cn([C@H]2C[C@H](N=[N+]=[N-])[C@@H](COP(=O)(O)OC[C@H]3OC(O)[C@H](O)[C@@H](O)[C@@H]3O)O2)c(=O)[nH]c1=O ; strain or isolate: LAV-Bru ; setting: 22 d ; cell line: CEM ; value: <0.2 µM
CCc1cc(COCc2cccc3ccccc23)c(=O)[nH]c1C ; strain or isolate: LAI ; cell line: CEM + CEM-SS ; value: 5.8 µM
Nc1ncnc2c1ncn2[C@@H]1O[C@@H](CO)C=C1F ; strain or isolate: LAV ; cell line: PBMC ; value: 47.6 µM
O=C(/C=C/c1cn([C@H]2C=C[C@@H](CO)O2)c(=O)[nH]c1=O)NCCCCCCNC(=O)C(F)(F)F ; strain or isolate: LAI ; cell line: CEM + CEM-SS ; value: 560 µM
Cc1cn([C@H]2C[C@H](N=[N+]=[N-])[C@@H](CO)O2)c(=O)[nH]c1=O ; strain or isolate: LAI ; cell line: CEM + CEM-SS ; value: 0.002 µM
Cc1cn([C@H]2C=C[C@@H](COC(=O)CCNC(=O)C(=O)/C=C(\O)c3cccn3Cc3ccc(F)cc3)O2)c(=O)[nH]c1=O ; strain or isolate: BaL ; cell line: PBMC ; value: 1.5 µM
Nc1nc2c(ncn2[C@H]2CC[C@@H](CO)O2)c(=O)[nH]1 ; strain or isolate: LAV ; cell line: PBMC ; value: 1.06–2.16 µM
COc1cc(C(=O)N2CCN(C(=O)c3cc(OC)c(OC)c(OC)c3)C(COC(=O)NC(C)CC(C)C)C2)cc(OC)c1OC ; strain or isolate: BaL ; cell line: Macrophage + Monocytes/macrophages ; value: >100 µM
CC(C)(C)OC(=O)NCCCCCCNC(=O)/C=C/c1cn([C@H]2C=C[C@@H](CO)O2)c(=O)[nH]c1=O ; strain or isolate: IIIB ; cell line: MT-4 ; value: >100 µM
O=c1[nH]cnc2c1ncn2[C@H]1CC[C@@H](CO)O1 ; strain or isolate: LAI ; cell line: MT-2 ; value: 0.35 µM
CNc1ncnc2c1ncn2[C@H]1C=C[C@@H](CO)O1 ; strain or isolate: LAV ; cell line: PBMC ; value: 3.43–4.68 µM
C1=Cc2nc1c(-c1ccc(-n3cccc3)cc1)c1ccc([nH]1)c(-c1ccc(-n3cccc3)cc1)c1nc(c(-c3ccc(-n4cccc4)cc3)c3ccc([nH]3)c2-c2ccc(-n3cccc3)cc2)C=C1 ; strain or isolate: LAV ; cell line: PBMC ; value: 7.3 µM
Nc1ncnc2c1ncn2[C@H]1CC[C@@H](CO)O1 ; strain or isolate: LAI ; cell line: CEM + CEM TK- ; value: 1.1 µM
Nc1nc(=O)n([C@H]2CO[C@@H](CO)S2)cc1F ; strain or isolate: 4170 (AZT-resistant) ; cell line: CBMC ; value: 1.8 µM
Cn1c(=O)c(C(=O)NCCO)c(O)c2ncc(Cc3ccc(F)cc3)cc21 ; strain or isolate: BaL ; cell line: PBMC ; value: 0.0019 µM
CCc1cc(COCc2ccccc2)c(SC)nc1C ; strain or isolate: LAI ; cell line: CEM + CEM-SS ; value: >10 µM
Nc1ncnc2c1ncn2[C@H]1C=C[C@@H](CO)O1 ; strain or isolate: LAV ; cell line: PBMC ; value: 0.76 µM
Cc1cn([C@H]2C[C@H](N=[N+]=[N-])[C@@H](CO)O2)c(=O)[nH]c1=O ; strain or isolate: LAI ; cell line: CEM + CEM-SS ; value: 0.006 µM
CCc1cc(COCc2ccc(F)cc2)c(OC)nc1C ; strain or isolate: LAI ; cell line: CEM + CEM-SS ; value: >10 µM
Cc1cn([C@H]2C[C@H](N=[N+]=[N-])[C@@H](CO)O2)c(=O)[nH]c1=O ; cell line: H9 ; value: <5 µM
CC(C)(C)NC(=O)[C@@H]1C[C@@H]2CCCC[C@@H]2CN1C[C@@H](OC(=O)CCCCOc1ccc(C[C@H](N)C(=O)O)cc1)[C@H](Cc1ccccc1)NC(=O)[C@H](CC(N)=O)NC(=O)c1ccc2ccccc2n1 ; strain or isolate: LAI ; cell line: CEM ; value: 0.039 µM
Nc1ccn([C@H]2C=C[C@@H](CO)O2)c(=O)n1 ; strain or isolate: LAV ; cell line: PBMC ; value: 0.005 µM
CCOCn1c([Se]c2ccccc2)c(C)c(=O)[nH]c1=O ; strain or isolate: LAV ; cell line: PBMC ; value: 0.64 µM
Cc1cn([C@H]2C=C[C@@H](CO)O2)c(=O)[nH]c1=O ; strain or isolate: LAI ; cell line: CEM + CEM-SS ; value: 15 µM
Cc1cn([C@H]2C[C@H](N=[N+]=[N-])[C@@H](CO)O2)c(=O)[nH]c1=O ; strain or isolate: HXB2 Subtype B X4 ; cell line: PBMC ; value: 0.0025 µM
Cc1cn([C@H]2C[C@H](N=[N+]=[N-])[C@@H](CO)O2)c(=O)[nH]c1=O ; strain or isolate: 3887(RT-M184M/V) ; mutations: RT-M184M/V ; cell line: CBMC ; value: 0.002 µM
CCCCCCCC/C=C\CCCCCCCC(=O)OCC(COC(=O)CCCCCCC/C=C\CCCCCCCC)OC(=O)CCC(=O)O[C@H](CN1C[C@H]2CCCC[C@H]2C[C@H]1C(=O)NC(C)(C)C)[C@H](Cc1ccccc1)NC(=O)[C@H](CC(N)=O)NC(=O)c1ccc2ccccc2n1 ; strain or isolate: LAI ; cell line: CEM ; value: 0.8 µM
CCSCCCCCCCCCCC(=O)O ; cell line: H9 ; value: <10 µM
CCCCCCCCCCCCCCCC(=O)OCC(COC(=O)CCCCCCCCCCCCCCC)OC(=O)CCC(=O)O[C@H](CN1C[C@H]2CCCC[C@H]2C[C@H]1C(=O)NC(C)(C)C)[C@H](Cc1ccccc1)NC(=O)[C@H](CC(N)=O)NC(=O)c1ccc2ccccc2n1 ; strain or isolate: LAI ; cell line: CEM ; value: 0.11 µM
CN(C)c1ccc(-c2c3nc(c(-c4ccc(N(C)C)cc4)c4ccc([nH]4)c(-c4ccc(N(C)C)cc4)c4nc(c(-c5ccc(N(C)C)cc5)c5ccc2[nH]5)C=C4)C=C3)cc1 ; strain or isolate: LAV ; cell line: PBMC ; value: >100 µM

Repeating the first 8 entries:

SMILES,strain or isolate,mutations,setting,cell line,value
CCc1cc(COCc2ccccc2Br)c(=O)[nH]c1C,LAI,-,-,CEM + CEM-SS,2.1 µM
Cc1cn([C@H]2C[C@H](N=[N+]=[N-])[C@@H](COP(=O)(OCCCCSC(=O)C(C)(C)C)OCCCCSC(=O)C(C)(C)C)O2)c(=O)[nH]c1=O,LAI,-,-,CEM + CEM-SS,1 µM
c1ccc2c(c1)ncc1cc3c(cc12)OCO3,IIIB,-,-,MT-4,5 µg/mL
COC(=O)[C@H](C)NP(=O)(OC[C@H]1O[C@@H](n2cc(C)c(=O)[nH]c2=O)C[C@@H]1N=[N+]=[N-])Oc1ccc(Br)cc1,IIIB,-,-,PBMC,0.001–0.004 µM
O=c1ccn([C@H]2C=C[C@@H](CO)O2)c(=O)[nH]1,LAV,-,-,PBMC,79.2 µM
Nc1ncnc2c1ncn2[C@H]1CC[C@@H](CO)O1,LAI,-,-,CEM + CEM-SS,1.5 µM
CC(=O)N[C@H](C(=O)N[C@@H](Cc1ccccc1)[C@@H](O)CN(Cc1ccccc1)NC(=O)[C@@H](NC(C)=O)C(C)C)C(C)C,LAV,-,-,MT-2,<10 µM
O=C(O)C(=O)CC(=O)c1cc(OCc2ccccc2)cc(OCc2ccccc2)c1,BaL,-,-,PBMC,1.1 µM

ECn: concentration that inhibits the pathogen or its effect by n%. Rows are shuffled and stem from different studies. An empty or dashed field is not shown.